Source: PMC7144554, “2-(Arylamino)-6-(trifluoromethyl)nicotinic Acid Derivatives: New HIV-1 RT Dual Inhibitors Active on Viral Replication” (Molecules, 2020)

Target: HIV-1 RT-associated RNase H activity (wt RT) (Human immunodeficiency virus type 1 group M subtype B, UniProt P04585)
Assay: HIV-1 DNA polymerase-independent RNase H activity, wt RT
Details: read-out: RNase H IC50

Compound: CCOC(=O)C(=O)CC(=O)/C=C/c1cccn1Cc1ccccc1Cl
- IC50: 8.5 µM
